Tested on: antibodies in human serum
Experiment: Bacterial surface display library screening by MACS with biotinylated human serum
Assay type: binding
Details: for No. of selected clones per ORF and screen: G: Bacterial surface display: G, LSA50/6 library in lamb with IC sera 1 (471); for No. of selected clones per ORF and screen: A: Bacterial surface display: A; for No. of selected clones per ORF and screen: B: Bacterial surface display: B; for No. of selected clones per ORF and screen: F: Bacterial surface display: F, LSA50/6 library in lamB with patient sera P1 (1105)
[1] = screen C: LSA250/1 library in fhuA with IC sera 1 (571)
[2] = screen E: LSA50/6 library in lamB with IC sera 2 (454)
[3] = screen H: LSA250/1 library in fhuA with patient sera 1 (IgA, 708)
[4] = screen G: LSA50/6 library in lamb with IC sera 1 (471)
[5] = identified by bacterial surface display
[6] = screen A: LSA250/1 library in fhuA with patient sera 1 (655)
[7] = screen B: LSA50/6 library in lamB with patient sera 1 (484)
[8] = screen F: LSA50/6 library in lamB with patient sera P1 (1105)
[9] = LSE150 library in fhuA with patient sera 2 (957)
[10] = LSE70 library in lamB with patient sera 2 (1420)
[11] = ORFs selected by bacterial surface display (screens A, B, C; some also D)

putative Exotoxin [compound 2960]
No. of selected clones per ORF and screen [1]: C: 101, | No. of selected clones per ORF and screen [2]: E: 2, | No. of selected clones per ORF and screen [3]: H: 58

YtpT, conserved hypothetical protein [compound 1371]
No. of selected clones per ORF and screen [1]: 3 | No. of selected clones per ORF and screen [2]: 2 | No. of selected clones per ORF and screen [4]: G: 1

CRF0750 (DAPLGLIPGVTFKNDVPNFSVNIRLSRGEQTTPSKPAAFANLA)
No. of selected clones per ORF and screen: G: G: 44 | Location of identified Immunogenic region [5]: aa 25-39

Conserved hypothetical protein [compound 2470]
No. of selected clones per ORF and screen [1]: C: 3

homology with ORF1 [compound 3002]
No. of selected clones per ORF and screen [6]: 2 | No. of selected clones per ORF and screen [1]: 1 | No. of selected clones per ORF and screen [3]: H: 4

ISSP, immunogenic secreted protein precursor, putative [compound 2359]
No. of selected clones per ORF and screen [7]: 4 | No. of selected clones per ORF and screen [8]: 11

LPXTGVI protein [compound 0657]
No. of selected clones per ORF and screen [6]: A: 2, | No. of selected clones per ORF and screen [7]: B: 27, | No. of selected clones per ORF and screen [8]: F: 15

CRF0879 (AGFLTKAVLKSTSSLSSNTSSTTSLRAITLNEPSSIFNSTLTFLALS)
No. of selected clones per ORF and screen: A [9]: A: 3, | No. of selected clones per ORF and screen: B [10]: B: 10 | Location of identified Immunogenic region [11]: aa 9-40

coma operon protein 2 [compound 0453]
No. of selected clones per ORF and screen [1]: C: 3

leukocidin F homolog [compound 1616]
No. of selected clones per ORF and screen [6]: A: 10

Complement, unknown [compound 0308]
No. of selected clones per ORF and screen [6]: 6 | No. of selected clones per ORF and screen [7]: 2 | No. of selected clones per ORF and screen [1]: C: 47, | No. of selected clones per ORF and screen [2]: E: 35

CRF2498 (EVLAIPLSKHEAPAICSCCITLVVVCYWNSNCKVFIKIYFIIIF)
No. of selected clones per ORF and screen: G: G: 8 | Location of identified Immunogenic region [5]: aa 2-15

CRF2409 (RRRPPQSNCPPDTVSHHDKWCGLESQHS)
No. of selected clones per ORF and screen: B [10]: B: 6 | Location of identified Immunogenic region [11]: aa 2-24

CRF0308 (RCTKLNVKNADPPAMTAIQQSDATPPNINRKKPHAMAAAKKFVKKEYCNDACCK)
No. of selected clones per ORF and screen: A (LSA250/1 library in fhuA with patient sera 1 (655)): 6 | No. of selected clones per ORF and screen: B (LSA50/6 library in lamB with patient sera 1 (484)): 2 | No. of selected clones per ORF and screen: C (Bacterial surface display: C, LSA250/1 library in fhuA with IC sera 1 (571)): C: 47, | No. of selected clones per ORF and screen: E (Bacterial surface display: E, LSA50/6 library in lamB with IC sera 2 (454)): E: 35 | Location of identified Immunogenic region [5]: aa 5-38

IgG binding protein A [compound 2548]
No. of selected clones per ORF and screen [6]: A: 55, | No. of selected clones per ORF and screen [7]: B: 54, | No. of selected clones per ORF and screen [1]: C: 35, | No. of selected clones per ORF and screen [8]: F: 59, | No. of selected clones per ORF and screen [4]: G: 56, | No. of selected clones per ORF and screen [3]: H: 38

IgG binding protein [compound 2086]
No. of selected clones per ORF and screen [6]: 1 | No. of selected clones per ORF and screen [7]: 8 | No. of selected clones per ORF and screen [2]: E: 24, | No. of selected clones per ORF and screen [8]: F: 9, | No. of selected clones per ORF and screen [4]: G: 137

CRF2004 (MNEASNLILTMPNESKAATKIAKIKPPITGAGIQIRFKKLT)
No. of selected clones per ORF and screen: F: F: 13 | Location of identified Immunogenic region [5]: aa 16-32

Hypothetical protein [compound 2577]
No. of selected clones per ORF and screen [1]: C: 6

FnbpB [compound 2184]
No. of selected clones per ORF and screen [6]: 2 | No. of selected clones per ORF and screen [1]: 4 | No. of selected clones per ORF and screen [4]: G: 9

Carbamoyl-phosphate synthase [compound 0749]
No. of selected clones per ORF and screen [1]: C: 2

putative Exotoxin [compound 2963]
No. of selected clones per ORF and screen [1]: C: 3, E: 3, | No. of selected clones per ORF and screen [2]: C: 3, E: 3, | No. of selected clones per ORF and screen [4]: G: 1

Cmp binding factor 1 homolog [compound 1491]
No. of selected clones per ORF and screen [6]: 7 | No. of selected clones per ORF and screen [1]: 2 | No. of selected clones per ORF and screen [2]: 7 | No. of selected clones per ORF and screen [8]: 4

Coagulase [compound 2680]
No. of selected clones per ORF and screen [1]: C: 26, | No. of selected clones per ORF and screen [4]: 4 | No. of selected clones per ORF and screen [3]: 8

metC [compound 2914]
No. of selected clones per ORF and screen [6]: A: 1, | No. of selected clones per ORF and screen [1]: C: 14, | No. of selected clones per ORF and screen [8]: F: 2

homology with ORF1 [compound 1955]
No. of selected clones per ORF and screen [6]: 1 | No. of selected clones per ORF and screen [7]: 3 | No. of selected clones per ORF and screen [2]: 1 | No. of selected clones per ORF and screen [8]: 8

CRF1928 (RQRPVHVFPKNNNPHGQYNHQYQHHYVTLANAF)
No. of selected clones per ORF and screen: F: F: 9 | Location of identified Immunogenic region [5]: aa 13-22

ARF0280 (VYMLSSTRFIVRWYNNCNKSTNIINERSSGSIKSDGNSSCFFK)
No. of selected clones per ORF and screen: F: F: 6 | Location of identified Immunogenic region [5]: aa 25-43

SdrE [compound 0095]
No. of selected clones per ORF and screen [1]: C: 12, | No. of selected clones per ORF and screen [2]: E: 2

V8 protease [compound 0569]
No. of selected clones per ORF and screen [6]: A: 1, F: 1 | No. of selected clones per ORF and screen [8]: A: 1, F: 1

NifS protein homolog [compound 1344]
No. of selected clones per ORF and screen [6]: A: 11

Lipase (geh) [compound 2798]
No. of selected clones per ORF and screen [6]: A: 41, | No. of selected clones per ORF and screen [7]: B: 42, | No. of selected clones per ORF and screen [1]: C: 3, | No. of selected clones per ORF and screen [8]: F: 35, | No. of selected clones per ORF and screen [4]: G: 1, | No. of selected clones per ORF and screen [3]: H: 11

CRF2309 (LEPPTRRALTSNTGMILLIASSNTSNASRPLRCSTRSNAE)
No. of selected clones per ORF and screen: B [10]: B: 6 | Location of identified Immunogenic region [11]: aa 4-16

LPXTGIV protein [compound 2180]
No. of selected clones per ORF and screen [6]: A: 3, C: 3, | No. of selected clones per ORF and screen [1]: A: 3, C: 3, | No. of selected clones per ORF and screen [2]: 6 | No. of selected clones per ORF and screen [8]: 2 | No. of selected clones per ORF and screen [3]: H: 6

homology with ORF1 [compound 2746]
No. of selected clones per ORF and screen [6]: A: 1, | No. of selected clones per ORF and screen [3]: H: 13

aureolysin [compound 2351]
No. of selected clones per ORF and screen [6]: 1 | No. of selected clones per ORF and screen [1]: 6

CRF1004 (YFFISFLIRLISCSLITETISICPFLDIIEPLPPIKVSSANSGMTGSKSLMGRADANITL)
No. of selected clones per ORF and screen: A [9]: 3 | No. of selected clones per ORF and screen: B [10]: 5 | Location of identified Immunogenic region [11]: aa 29-65

ORF1; homology with putative secreted antigen precursor from S. epidermidis [compound 2264]
No. of selected clones per ORF and screen [6]: A: 131, | No. of selected clones per ORF and screen [7]: B: 51, | No. of selected clones per ORF and screen [1]: C: 13, | No. of selected clones per ORF and screen [2]: E: 43, | No. of selected clones per ORF and screen [8]: F: 78, | No. of selected clones per ORF and screen [4]: G: 2, | No. of selected clones per ORF and screen [3]: H: 17

hemN homolog [compound 1209]
No. of selected clones per ORF and screen [7]: 7 | No. of selected clones per ORF and screen [8]: 8

B1: repC [ORF2963P] (protein, listed as Staphylococcus aureus)
chain: MQEYQKSLNTLKKPINVPYEQETEKVGGLFSKEIQETGNVVISQKDFNEFQKQIKAAQDISEDYEYIKSGRALDDKDKEIREKDDLLNKAVERIENADDNFNQLYENAKPLKENIEIALKLLKILLKELERVLGRNTFAERVNKLTEDEPKLNGLAGNLDKKMNPELYSEQEQQQEQQKNQKRDRGMHL
No. of selected clones per ORF and screen [1]: C: 3

Source: US7968297B2, “Method for identification, isolation and production of antigens to a specific pathogen” (Intercell AG, priority 2001, dated 2011)
